{"sequences": {"note": "The chains behind the UniProt entries cited, without tags or fusion partners. Where a name states a change or a piece, a line headed by the entry shows the natural chain unless it says otherwise.", "UniProt Q8Z9U1": "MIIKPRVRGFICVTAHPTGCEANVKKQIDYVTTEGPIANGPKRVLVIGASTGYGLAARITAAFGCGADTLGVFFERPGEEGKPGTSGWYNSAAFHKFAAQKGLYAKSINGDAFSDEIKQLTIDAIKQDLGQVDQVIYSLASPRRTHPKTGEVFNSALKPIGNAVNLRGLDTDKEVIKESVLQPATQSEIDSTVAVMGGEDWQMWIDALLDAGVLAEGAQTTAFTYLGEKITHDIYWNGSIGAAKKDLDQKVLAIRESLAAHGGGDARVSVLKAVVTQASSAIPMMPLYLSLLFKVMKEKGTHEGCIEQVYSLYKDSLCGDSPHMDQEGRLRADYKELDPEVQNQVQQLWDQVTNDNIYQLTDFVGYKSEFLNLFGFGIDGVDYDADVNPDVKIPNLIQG"}, "source": "paper PMC4887296", "about": "(Biochemistry, 2016)", "molecular_target": "wild-type ypFabV (Yersinia pestis, UniProt Q8Z9U1)", "format": "biochemical", "data": [{"substance": "trans-2-octenoyl-ecACP", "values": [{"measurement": "kcat, wild-type ypFabV", "value": "14.9 ± 2.08", "unit": "s⁻¹"}, {"measurement": "kcat/KM relative to octenoyl-CoA", "value": 75, "unit": "fold"}, {"measurement": "Km", "setting": "read-out: KM, wild-type ypFabV", "value": "6 ± 2", "unit": "µM"}]}]}
